Pooled drug test results. Numbers come from NIAID ChemDB, via PubChem.

All rows: tests in culture; species: Candida tropicalis

Percent inhibition refers to the dose given; in toxicity tests it is the harm to the cells.

SMILES	endpoint	setting	read by	dose	strain or isolate	value
O=C(/C=C/c1ccc([N+](=O)[O-])cc1)OC1CCN(CC(O)(Cn2cncn2)c2ccc(F)cc2F)CC1	MIC80	-	broth dilution	-	-	0.122 µM
CC(C)(O)c1cn(-c2cccc3ccccc23)nn1	inhibition	-	-	2048 µg/mL	URM 4790	0%
CCC(C)CC(C)CCCCCCCCC(=O)N[C@H]1C[C@@H](O)[C@H](NCCN)NC(=O)[C@@H]2[C@@H](O)CCN2C(=O)[C@H]([C@H](O)CCN)NC(=O)[C@H]([C@H](O)[C@@H](O)c2ccc(O)cc2)NC(=O)[C@@H]2C[C@@H](O)CN2C(=O)[C@H]([C@@H](C)O)NC1=O	MIC	-	broth dilution	-	8685	4 µg/mL
C[C@@H]1CC(=O)N(c2ccc(Cl)cc2)C1=O	MIC	-	broth dilution / turbidity	-	CCC 131-2000	62.5 µg/mL
CC(C)(O)c1cn(-c2ccccc2)nn1	inhibition	-	broth dilution	2048 µg/mL	URM 916	0%
O=C(OC1CCN(CC(O)(Cn2cncn2)c2ccc(F)cc2F)CC1)C(F)(F)F	MIC80	-	broth dilution	-	-	2.304 µM
Clc1ccc(C(Cn2ccnc2)OCc2csc3c(Cl)cccc23)c(Cl)c1	MIC50	24 h	absorbance	-	65 isolates	1 µg/mL
Cc1ccc(/C=C/C(=O)OC2CCN(CC(O)(Cn3cncn3)c3ccc(F)cc3F)CC2)cc1	MIC80	-	broth dilution	-	-	0.032 µM
CC(C)(O)c1cn(-c2ccc([N+](=O)[O-])cc2)nn1	inhibition	-	broth dilution	2048 µg/mL	URM 1150	0%
CCCCCCCC(=O)OC1CCN(CC(O)(Cn2cncn2)c2ccc(F)cc2F)CC1	MIC80	-	broth dilution	-	-	0.139 µM
C[C@@H]1C(=O)N(CCCc2ccccc2)C(=O)[C@@H]1C	MIC	-	broth dilution / turbidity	-	CCC 131-2000	62.5 µg/mL
C=CCc1ccc(OC)c(OC)c1	MIC90	-	turbidity	-	2778	340 µg/mL
Cc1ccc(-n2cc(C(C)(C)O)nn2)cc1C	inhibition	-	broth dilution	2048 µg/mL	URM 1150	0%
O=C1C2=C(OC(CI)C2)C(=O)c2ccccc21	MIC	-	broth dilution	-	Clinical isolate	16 µg/mL
O=C(/C=C/c1ccccc1Br)OC1CCN(CC(O)(Cn2cncn2)c2ccc(F)cc2F)CC1	MIC80	-	broth dilution	-	-	0.458 µM
CC1C(=O)N(c2ccccc2)C(=O)C1C	MIC	-	broth dilution / turbidity	-	CCC 131-2000	62.5 µg/mL
CC(=O)OC[C@H]1O[C@@H](O[C@@H]2[C@@H](N=[N+]=[N-])[C@H](O)[C@H](O)[C@H]3OC(C)(C)O[C@H]32)[C@H](OC(C)=O)[C@@H](OC(C)=O)[C@H]1OC(C)=O	inhibition	-	broth dilution / turbidity	31.25 µg/mL	C 131	14.97%
Nc1ncccc1-c1cc(Cc2ccc(COc3ccccn3)cc2)no1	MIC	-	broth dilution	-	8684	0.03 µg/mL
Cc1ccccc1N1C(=O)C[C@@H](C)C1=O	MIC	-	broth dilution / turbidity	-	CCC 131-2000	125 µg/mL

Repeating the final 2 entries:

SMILES,endpoint,setting,read by,dose,strain or isolate,value
Nc1ncccc1-c1cc(Cc2ccc(COc3ccccn3)cc2)no1,MIC,-,broth dilution,-,8684,0.03 µg/mL
Cc1ccccc1N1C(=O)C[C@@H](C)C1=O,MIC,-,broth dilution / turbidity,-,CCC 131-2000,125 µg/mL

Blank or dashed fields: not listed here. A number after MIC or MFC names an inhibition level or a share of isolates. Lines come from different laboratories, so protocols vary.